Experimental data: PubChem BioAssay AID1259414 (Drosophila RNAi Screening Center, 2018)
The screen tested about 24,000 reagents; below is an unselected part of those with a known target gene and a result. Of all reagents, about 1,210 (5%) got an active call. 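Inactive calls also include excluded dsRNAs with several or no targets, genes unexpressed in JW18, and well A1, regardless of score.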 A plus sign joins genes that one reagent is predicted to hit.

Purpose: 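Fly genes that alter Wolbachia amount inside host cells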 (primary screen)
System: Drosophila JW18 cells infected with Wolbachia
Reagents: long dsRNA against Drosophila genes, 0.25 µg dsRNA per well of a 384-well plate
Time to read-out: 5 days
Challenge: cells persistently infected with Wolbachia before knock-down; no added drug
Read-out: 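Automated imaging of bacterial rRNA staining divided by host cell count, reported as plate-normalised robust z-score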
Reading the numbers: Wolbachia per cell robust z: higher = more Wolbachia per host cell than the plate typical
Rule for the call: 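Hit when robust z is 1.5 or more, or -1.5 or less, in at least two of three replicates; excludes dsRNAs with several or no targets, genes not expressed in JW18 and well A1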

predicted target	DRSC id	Wolbachia per cell robust z, rep 1	Wolbachia per cell robust z, rep 2	Wolbachia per cell robust z, rep 3	call
pod1 (pod1 coronin)	DRSC18362	0.436	-1.11	0.299	inactive
pod1 (pod1 coronin)	DRSC23544	0.452	-1.49	-0.252	inactive
nemy (no extended memory)	DRSC05357	0.394	1.58	-11.9	inactive
nemy (no extended memory)	DRSC07262	-6.62	-0.149	-3.55	active
nemy (no extended memory)	DRSC26532	0.915	1.14	0.113	inactive
CG12507	DRSC19463	0.234	1.07	-0.836	inactive
Tfb1 (Transcription factor B1)	DRSC07082	-0.75	0.218	0.225	inactive
salr (spalt-related)	DRSC03607	0.00984	-6.02	-0.48	inactive
Cpr67B (Cuticular protein 67B)	DRSC10373	-4.19	-0.0545	-0.526	inactive
CG18231	DRSC10307	0.689	-0.127	0.548	inactive
AGBE (1,4-Alpha-Glucan Branching Enzyme)	DRSC06861	-0.0345	0.337	-0.289	inactive
AGBE (1,4-Alpha-Glucan Branching Enzyme)	DRSC27652	-0.188	0.843	-0.0506	inactive
CG31664	DRSC22084	-0.126	-0.865	0.633	inactive
MESK2 (Misexpression suppressor of KSR 2)	DRSC04258	-6.91	-0.0279	-0.634	inactive
MESK2 (Misexpression suppressor of KSR 2)	DRSC28508	-1.6	0.302	-0.883	inactive
CG9410 + CG15908	DRSC05001	-0.191	-7.11	0.237	inactive
CG14322	DRSC14801	0.574	0.636	-0.0487	inactive
nAChRalpha7 (nicotinic Acetylcholine Receptor alpha7)	DRSC20078	0.292	0.591	0.544	inactive
nAChRalpha7 (nicotinic Acetylcholine Receptor alpha7)	DRSC20081	0.142	0.421	-0.179	inactive
CG18343	DRSC06726	0.836	0.497	0.498	inactive
PNUTS (Phosphatase 1 nuclear targeting subunit)	DRSC00638	-0.886	0.166	-0.0944	inactive
PNUTS (Phosphatase 1 nuclear targeting subunit)	DRSC23503	0.668	-0.787	1.85	inactive
SCaMC	DRSC10293	0.525	-0.665	-0.156	inactive
SCaMC	DRSC10415	0.427	0.458	0.1	inactive
SCaMC	DRSC28518	-1.09	-0.0965	-0.128	inactive
alpha-Est5 (alpha-Esterase-5)	DRSC12617	0.312	0.33	-0.391	inactive
Mal-B1 (Maltase B1)	DRSC02416	-6.68	0.46	1.99	inactive
Mal-B1 (Maltase B1)	DRSC25542	0.769	-0.103	1.07	inactive
CG4042	DRSC11751	0.131	-0.584	0.562	inactive
CG4042	DRSC29114	-1.9	-0.724	-2.51	active
Acox3 (Acyl-CoA oxidase 3)	DRSC03251	1.67	1.48	0.944	inactive
Acox3 (Acyl-CoA oxidase 3)	DRSC23799	0.701	-1.19	-0.27	inactive
scb (scab)	DRSC05542	1.91	0.651	0.402	inactive
scb (scab)	DRSC07678	0.545	0.857	1.13	inactive
scb (scab)	DRSC40708	-0.155	-0.191	0.581	inactive
CG42837 + CG44242 + Lipt1	DRSC07183	-2.31	1.04	-0.0994	inactive
Eip74EF (Ecdysone-induced protein 74EF)	DRSC11160	1.25	2.16	-0.455	inactive
Eip74EF (Ecdysone-induced protein 74EF)	DRSC23794	-2.1	0.341	-1.44	inactive
Eip74EF (Ecdysone-induced protein 74EF)	DRSC40711	-2.43	-0.414	-1.42	inactive
GMF (Glia maturation factor)	DRSC01928	0.208	-1.39	-0.608	inactive
CG15395	DRSC00409	1.51	0.893	1.56	inactive
CG15923	DRSC15129	0.762	1.43	-0.55	inactive
CG30324	DRSC22655	0.181	-1.88	0.969	inactive
CG30324	DRSC26815	-1.11	-1.05	-1.02	inactive
Cdep (Chondrocyte-derived ezrin-like domain containing protein)	DRSC12028	-1.29	-0.345	-1.59	inactive
Cdep (Chondrocyte-derived ezrin-like domain containing protein)	DRSC12220	0.819	0.981	-0.26	inactive
Cdep (Chondrocyte-derived ezrin-like domain containing protein)	DRSC12291	-5.19	1.82	-0.0552	inactive
Cdep (Chondrocyte-derived ezrin-like domain containing protein)	DRSC38586	-0.407	-2.73	-0.538	inactive
CG4282	DRSC06865	-1.14	-0.737	-0.375	inactive
robl (roadblock)	DRSC07674	-2.64	-1.2	-1.12	inactive
Vha68-1 (Vacuolar H[+] ATPase 68kD subunit 1)	DRSC03470	-0.2	-2.07	0.0758	inactive
Vha68-1 (Vacuolar H[+] ATPase 68kD subunit 1)	DRSC40775	-0.726	0.406	-0.666	inactive
ubl (ubiquitin like)	DRSC04998	-1.56	-1.19	-0.345	inactive
CG14292	DRSC14772	0.559	0.318	0.964	inactive
Duba (Deubiquitinating enzyme A)	DRSC10582	1.58	-7.33	0.724	inactive
fs(1)h (female sterile (1) homeotic)	DRSC18778	0.114	-0.319	0.103	inactive
fs(1)h (female sterile (1) homeotic)	DRSC29017	2.17	2.39	1.51	active
CG30383	DRSC05062	-1.01	-0.89	-2.48	inactive
DNaseII (Deoxyribonuclease II)	DRSC16310	0.169	-0.137	0.0491	inactive
PPYR1 (Protein phosphatase Y regulator 1)	DRSC19612	0.533	0.563	-3.79	inactive
PPYR1 (Protein phosphatase Y regulator 1)	DRSC27134	1.29	0.375	0.293	inactive
CG7668	DRSC10901	0.533	1.01	-4.19	inactive
pav (pavarotti)	DRSC08730	0.97	0.757	1.37	inactive
pav (pavarotti)	DRSC25088	3.7	4.76	5.12	active
Topors (Topoisomerase I-interacting protein)	DRSC06531	-0.742	-0.113	0.412	inactive
IntS11 (Integrator 11)	DRSC15407	-8.82	0.293	0.317	inactive
IntS11 (Integrator 11)	DRSC26912	-0.281	-0.125	-0.162	inactive
Datp (Diadenosine tetraphosphatase)	DRSC01102	-7.62	-1.79	-1.31	inactive
Datp (Diadenosine tetraphosphatase)	DRSC41453	1.08	-1.58	-0.255	inactive
